# Measured values published in PubChem BioAssay AID743269 (The Scripps Research Institute Molecular Screening Center, 2014).
# The list shows a part of the results, in another mix than the full data. The source made the active and inactive calls.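 How the source made its calls: active means inhibition above the screen-wide mean plus 3 SD (cut at about 13% in these data); inactive means the rest.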
# Test system: HIV-1 integrase (with human LEDGF/p75)
# Test: blockers of LEDGF/p75-dependent integrase strand transfer – biochemical, TR-FRET, high throughput, primary screen (AID 743269);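 further: signal is the Cy5 over europium emission ratio at 671 and 618 nm; 0% = plate median of compound wells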
# Conditions: TR-FRET IN-LEDGF/p75 DNA integration, Eu/Cy5; at 3.7 µM; active compounds read high
row,Compound,inhibition
1,CN1CCC(Nc2ccc(Cl)cc2)CC1,inactive: -4.19%
2,COc1cc(OC)cc(C(=O)NCC2(N3CCOCC3)CCCCC2)c1,inactive: 4.62%
3,COc1cccc(C(c2nnnn2C2CCCC2)N2CCC(n3c(=O)[nH]c4ccccc43)CC2)c1OC (stereo not given),inactive: 4.28%
4,COc1cccc(C(=O)N(c2cc(C)cc(C)c2)C2CCN(C(=O)OC(C)(C)C)CC2)c1,inactive: 0.32%
5,CCC(CO)(C(=O)OC1CN2CCC1CC2)c1ccccc1 (stereo not given),inactive: 0.29%
6,CC(C)(C)OC(=O)N1CCC(Nc2ccccc2)CC1,inactive: -1.9%
7,O=C(O)C1(Nc2ccccc2)CCN(Cc2ccccc2)CC1,inactive: 0.91%
8,NN(c1ccccc1)C1CCN(CCc2ccccc2)CC1,inactive: 3.98%
9,CCCOc1ccc(C(=O)NCC2(N(C)C)CCCCC2)cc1,inactive: -1.52%
10,O=c1[nH]c2ccccc2n1C1CCN(C(c2cc3ccccc3o2)c2nnnn2C2CCCC2)CC1 (stereo not given),inactive: 0.48%
11,CCOc1ncccc1C(=O)NCC1(N2CCOCC2)CCCCC1,inactive: 0.79%
12,CN1CCC(Nc2ccc(F)c(Cl)c2)CC1,inactive: -4.26%
13,O=C(NCC1(N2CCCCC2)CCCCC1)c1ccco1,inactive: 3.4%
14,Cn1c(=O)[nH]cc(N(CCCl)CCCl)c1=O,inactive: -3.4%
15,CN(C)c1ccc(C(=O)NCC2(N3CCCCC3)CCCCC2)cc1,inactive: -6.32%
16,Cc1ccccc1NC1(C#N)CCN(Cc2ccccc2)CC1,inactive: 2.17%
17,CC(C)(C)n1nnnc1C(c1ccnc2ccccc12)N1CCC(n2c(=O)[nH]c3ccccc32)CC1 (stereo not given),inactive: -3.45%
18,CCN1CCC(Nc2cccc(F)c2)CC1,inactive: 1.43%
19,COc1ccc(C(c2nnnn2C2CCCCC2)N2CCC(n3c(=O)[nH]c4ccccc43)CC2)cc1 (stereo not given),inactive: 0.43%
20,Cc1ccc(C(=O)NCC2(N3CCCCC3)CCCCC2)o1,inactive: 0.52%
21,Fc1ccccc1NC1CCN(Cc2ccccc2)CC1,inactive: 3.61%
22,Cc1ccc(NC2(C#N)CCN(Cc3ccccc3)CC2)cc1,inactive: -0.69%

row,Compound,inhibition
1,CC(=O)N(c1ccccc1)C1CCNCC1,inactive: -5.72%
2,COc1cccc(C(c2nnnn2C2CCCCC2)N2CCC(n3c(=O)[nH]c4ccccc43)CC2)c1OC (stereo not given),inactive: 5.76%
3,CCC(c1nnnn1C1CCCCC1)N1CCC(n2c(=O)[nH]c3ccccc32)CC1 (stereo not given),inactive: 6.45%
4,O=c1[nH]c2ccccc2n1C1CCN(C(c2ccnc3ccccc23)c2nnnn2C2CCCCC2)CC1 (stereo not given),inactive: 7.75%
5,COc1cc(OC)cc(C(=O)NCC2(N3CCCCC3)CCCCC2)c1,inactive: 2.75%
6,CC(C)(C)n1nnnc1C(c1cccc2ccccc12)N1CCC(n2c(=O)[nH]c3ccccc32)CC1 (stereo not given),inactive: -2.58%
7,CN(C)C1(CNC(=O)c2cccc(C#N)c2)CCCCC1,inactive: -1.61%
8,c1ccc(CN2CCC(Nc3ccccc3)CC2)cc1,inactive: -5.55%
9,C/C(N)=N\P(=O)(Oc1ccccc1)Oc1ccccc1,inactive: 1.09%
10,Cc1cc(N(CCCl)CCCl)ccc1C=O,inactive: 1.61%
11,O=c1[nH]c2ccccc2n1C1CCN(C(c2ccccc2)c2nnnn2C2CCCC2)CC1 (stereo not given),inactive: 4.09%
12,CCCN1CCC(Nc2cc(OC)cc(OC)c2)CC1,inactive: 2.96%
13,N#Cc1ccc(C(=O)NCC2(N3CCCCC3)CCCCC2)cc1,inactive: 1.21%
14,CC(C)(C)OC(=O)N1CCC(N(C(=O)c2ccccc2)c2ccc(Cl)cc2)CC1,inactive: 1.37%
15,O=C(OC1CN2CCC1CC2)C1c2ccccc2C=Cc2ccccc21 (stereo not given),inactive: 2.08%
16,O=c1[nH]c2ccccc2n1C1CCN(C(c2cccs2)c2nnnn2C2CCCC2)CC1 (stereo not given),inactive: 2.46%
17,CCCCn1nnnc1C(c1cccc(OC)c1OC)N1CCC(n2c(=O)[nH]c3ccccc32)CC1 (stereo not given),inactive: 3.35%
18,COc1cccc(C(c2nnnn2C(C)(C)C)N2CCC(n3c(=O)[nH]c4ccccc43)CC2)c1OC (stereo not given),inactive: -3.32%
19,CCOC(=O)N1CCC(Nc2ccc(C)cc2)CC1,inactive: -11.3%
20,N/C(=N\O)c1c(N)no[n+]1[O-],inactive: 0.32%
21,O=c1[nH]c2ccccc2n1C1CCN(C(c2cccs2)c2nnnn2C2CCCCC2)CC1 (stereo not given),inactive: -4.18%
22,NC(=O)C1(Nc2ccccc2)CCN(Cc2ccccc2)CC1,inactive: -3.04%

row,Compound,inhibition
1,COc1ccc(C(=O)NCC2(N3CCOCC3)CCCCC2)cc1OC,inactive: 1.65%
2,O=c1[nH]c2ccccc2n1C1CCN(C(c2ccnc3ccccc23)c2nnnn2C2CCCC2)CC1 (stereo not given),inactive: 2.07%
3,CCCCn1nnnc1C(c1ccccc1)N1CCC(n2c(=O)[nH]c3ccccc32)CC1 (stereo not given),inactive: -1.06%
4,COc1cc(C(=O)NCC2(N3CCOCC3)CCCCC2)cc(OC)c1C,inactive: 1.87%
5,O=C(NCC1(N2CCOCC2)CCCCC1)c1cc(Br)ccc1Cl,inactive: -2.75%
6,COc1ccc(C(c2nnnn2C2CCCC2)N2CCC(n3c(=O)[nH]c4ccccc43)CC2)cc1 (stereo not given),inactive: 4.17%
7,Cc1ccc(C(=O)NCC2(N(C)C)CCCCC2)o1,inactive: 1.75%
8,CCCOc1ccc(C(=O)NCC2(N(C)C)CCCCC2)cc1OC,inactive: -2.75%
9,O=C(NCC1(N2CCCCC2)CCCCC1)c1cncc(Br)c1,inactive: -2.63%
10,CN1CCC(Nc2cccc(F)c2)CC1,inactive: 0.97%
11,COc1cc(OC)c(C(=O)NCC2(N(C)C)CCCCC2)cc1OC,inactive: -4.58%
12,O=C(NCC1(N2CCOCC2)CCCCC1)c1cc(F)c(F)cc1Cl,inactive: -2.94%
13,CCC(c1nnnn1C(C)(C)C)N1CCC(n2c(=O)[nH]c3ccccc32)CC1 (stereo not given),inactive: -6.91%
14,CCCCn1nnnc1C(c1ccnc2ccccc12)N1CCC(n2c(=O)[nH]c3ccccc32)CC1 (stereo not given),inactive: 1.67%
15,CC(C)c1ccc(NC2CCN(C(=O)OC(C)(C)C)CC2)cc1,inactive: -3.52%
16,COC(=O)C1(Nc2ccccc2)CCN(Cc2ccccc2)CC1,inactive: -1.26%
17,COc1ccc(CN(CCCl)CCCl)cc1Cl,inactive: -0.87%
18,CN(C)c1cccc(C(=O)NCC2(N3CCCCC3)CCCCC2)c1,inactive: -0.64%
19,COc1cc(C(=O)NCC2(N3CCCCC3)CCCCC2)ccc1OC(F)F,inactive: -0.04%
20,O=C(NCC1(N2CCOCC2)CCCCC1)c1cc(=O)[nH]c2ccccc12,inactive: 2.86%
21,CCCCn1nnnc1C(c1cccc2ccccc12)N1CCC(n2c(=O)[nH]c3ccccc32)CC1 (stereo not given),inactive: 1.15%
22,CN1CCN(CCOC(=O)C(O)(c2ccccc2)c2ccccc2)CC1,inactive: -2.15%

row,Compound,inhibition
1,CC(C)c1ccc(C(=O)NCC2(N3CCOCC3)CCCCC2)cc1,inactive: -0.5%
2,COc1ccc(NC2CCN(C(=O)OC(C)(C)C)CC2)cc1,inactive: 5.52%
3,O=C(NCC1(N2CCCCC2)CCCCC1)c1cccc(C(F)(F)F)c1,inactive: -5.79%
4,CCN1CCC(Nc2ccc(Cl)cc2)CC1,inactive: 0.88%
5,N#CC1(Nc2ccccc2)CCN(CCc2ccccc2)CC1,inactive: -2.48%
6,O=c1[nH]c2ccccc2n1C1CCN(C(c2ccccc2OC(F)(F)F)c2nnnn2C2CCCC2)CC1 (stereo not given),inactive: 1.11%
7,O=C(NCC1(N2CCCCC2)CCCCC1)c1cccc([N+](=O)[O-])c1,inactive: 3.6%
8,CSc1ccc(C(=O)NCC2(N3CCOCC3)CCCCC2)cc1,inactive: -0.49%
9,CC(C)(C)n1nnnc1C(c1ccccc1OC(F)(F)F)N1CCC(n2c(=O)[nH]c3ccccc32)CC1 (stereo not given),inactive: 2.65%
10,O=C(NCC1(N2CCCCC2)CCCCC1)c1ccc(OC(F)F)cc1,inactive: -4.15%
11,COc1cc(C(=O)NCC2(N(C)C)CCCCC2)ccc1OC(F)F,inactive: -3.22%
12,CCOC(=O)N1CCC(Nc2cccc(C)c2)CC1,inactive: -0.55%
13,O=c1[nH]c2ccccc2n1C1CCN(C(c2cccc3ccccc23)c2nnnn2C2CCCC2)CC1 (stereo not given),inactive: -1.92%
14,O=c1[nH]c2ccccc2n1C1CCN(C(c2ccccc2)c2nnnn2C2CCCCC2)CC1 (stereo not given),inactive: -0.12%
15,O=C(NCC1(N2CCCCC2)CCCCC1)c1ccc(F)cc1,inactive: 0.77%
16,CCCCn1nnnc1C(c1cc2ccccc2o1)N1CCC(n2c(=O)[nH]c3ccccc32)CC1 (stereo not given),inactive: 3.45%
17,O=P1(N(CCCl)CCCl)SCCCS1,inactive: -1.38%
18,CCCCOc1ccc(C(=O)NCC2(N3CCOCC3)CCCCC2)cc1,inactive: 1.21%
19,COc1ccc(NC2CCN(CCc3ccccc3)CC2)c(OC)c1,inactive: -3.01%
20,CCOC(=O)N1CCC(Nc2ccc(F)cc2)CC1,inactive: 4.82%
21,CC(C)(C)n1nnnc1C(c1ccccc1)N1CCC(n2c(=O)[nH]c3ccccc32)CC1 (stereo not given),inactive: 3.03%
22,O=C1CCN(Cc2ccccc2)CC1,inactive: -1.91%

row,Compound,inhibition
1,CCOc1ccc(C)cc1CN(CCCl)CCCl,inactive: 3.83%
2,O=C(OC1CN2CCC1CC2)C1c2ccccc2Oc2ccccc21 (stereo not given),inactive: 2.14%
3,O=c1[nH]c2ccccc2n1C1CCN(C(c2cc3ccccc3o2)c2nnnn2C2CCCCC2)CC1 (stereo not given),inactive: -3.6%
4,O=C(NCC1(N2CCCCC2)CCCCC1)c1ccc(Cl)s1,inactive: -7.34%
5,N#CC1(Nc2ccccc2)CCN(Cc2ccccc2)CC1,inactive: -1.32%
6,COc1ccc(Cl)cc1C(=O)NCC1(N2CCOCC2)CCCCC1,inactive: 1.01%
7,CCOC(=O)N1CCC(Nc2ccc(OC)cc2)CC1,inactive: -0.89%
8,CCCCn1nnnc1C(c1ccc(OC)cc1)N1CCC(n2c(=O)[nH]c3ccccc32)CC1 (stereo not given),inactive: -0.1%
9,O=c1[nH]c2ccccc2n1C1CCN(C(c2ccccc2OC(F)(F)F)c2nnnn2C2CCCCC2)CC1 (stereo not given),inactive: -0.46%
10,O=C(NCC1(N2CCCCC2)CCCCC1)c1ccc(Cl)nc1,inactive: 2.14%
11,Cc1cc(C)cc(N(C(=O)c2ccccc2)C2CCN(C(=O)OC(C)(C)C)CC2)c1,inactive: 0.41%
12,O=C(NCC1(N2CCOCC2)CCCCC1)c1cc2ccccc2o1,inactive: -0.22%
13,CSc1ccccc1C(=O)NCC1(N2CCCCC2)CCCCC1,inactive: -0.13%
14,Cc1cccc(NC2(C#N)CCN(Cc3ccccc3)CC2)c1,inactive: 1.76%
15,COc1ccc(C(=O)NCC2(N3CCCCC3)CCCCC2)cc1,inactive: -5.1%
16,CCC(c1nnnn1C1CCCC1)N1CCC(n2c(=O)[nH]c3ccccc32)CC1 (stereo not given),inactive: 1.22%
17,CC(C)(C)OC(=O)N1CCC(N(C(=O)c2ccccc2)c2ccc(F)cc2)CC1,inactive: 4.79%
18,COc1ccc(C(=O)NCC2(N3CCCCC3)CCCCC2)c(OC)c1OC,inactive: -0.78%
19,O=C(NCC1(N2CCCCC2)CCCCC1)c1ccc(=O)[nH]c1,inactive: -7.72%
20,CCCCn1nnnc1C(c1cccs1)N1CCC(n2c(=O)[nH]c3ccccc32)CC1 (stereo not given),inactive: 0.28%
21,O=C(NCC1(N2CCCCC2)CCCCC1)c1cccs1,inactive: 1.35%
22,CCCCn1nnnc1C(CC)N1CCC(n2c(=O)[nH]c3ccccc32)CC1 (stereo not given),inactive: -2.04%
